Human monoclonal antibodies against the spike receptor-binding domain (heavy:light variable regions). IC50 against pseudoviruses bearing the spike of naturally observed variants; lower = stronger; >10 µg/ml means not reached at the top dose. No active / inactive call. The stated detection limit is 0.0005 µg/ml; values near or below 0.001 µg/ml lie at the floor of the assay.
B1: BD56-653 (protein)
chain 1: QVQLVQSGAEVKKPGASVKVSCKASGFTFSNYYVHWVRQAPGQGLEWLGLSNPSGGSSSYAQRFQGRVTVTRDTSTSTVYMELNSLTSEDTAVYFCARDEVGGYDAFDIWGQGTMVSVS
chain 2: SSVLTQPPSVSVAPGKTARITCGGDNIGGTSVHWYQQKPGQAPVLVVFDDSDRPSGIPERFSGSNSGNTATLTISRVEAGDEADYYCQVWDSISDQSYVFGTGTKVTVL
B2: BD56-654 (protein)
chain 1: EVQLVQSGAEVKKPGESLKISCKGSGYKFSSYWIGWVRQMPGKGLDWMGAIYPSDSDARYSPSFQGQVIMSVDKSISTAYLQWSSLKASDTALYYCTSQAWVCNGSNCYEYFQHWGQGTLVTVSS
chain 2: EIVLTQSPAILSLSPGERATLSCRASQSVSSHLAWYQQKLGQAPRLLIYDASNRAPGIPARFSGSGSGTDFTLTISSLEPEDFAVYYCLQRTNWPLFTFGPGTKLDIK
B3: BD56-660 (protein)
chain 1: QVTLRETGPALVKPTQTLTLTCTFSGFSLSTPGVCVSWIRQPPGKALEWLARIDWDDDKNYNTSLKTRLTISKDTSKNQVVLTMTNMDPVDTATYYCARIVIGGSDHPPAGFDYWGQGTLVTVSS
chain 2: DIQMTQSPSSLSAAVGDRVTITCRTSESIDNYLNWYQQKPGKAPKLLIYTASSLQSGVPSRFSGSGSGTDFTLTISSLQPEDFATYYCQQSFSPLYTFGQGTKLDVK
B4: BD56-664 (protein)
chain 1: EVQLVESGGGLVQPGRSLRLSCAASGFSFDNYGIHWVRQPPGKGLEWVAGISWNSNSVAYADSVKGRFTISRDNAKNSLYLQMNSLRPEDTAFYYCAKDIRPSYGDYFDYWGQGTLVTVSS
chain 2: SYVLTQPPSVSVAPGKTARISCGGNDIGSKGVHWYQQKPGQAPVLVIFYDNDRPSGIPERFSGSNSGNTATLTISRVEAGDEADYYCQVWGASSDHPYVFGTGTKVSVL
B5: BD56-665 (protein)
chain 1: LVESGGGVVQPGRSLRLSCATSGFPFSKYGMHWVRQAPGKGLEWVALEYYDGSNKYYADSVKGRFSVSRDNSKNTLYLQMNTLRPEDTAVYYCAKGGLYSSSWFGDYWGQGTLVIVSS
chain 2: DIQMTQSPSSLSASVGDRVTITCQASQDINYYLNWYQQKPGKAPKLLIYDASSLEAGVTSRYSGSGSGTDFTFTISSLQPEDIATYYCQQYDNVPPYTFGQGTKLEIK
B6: BD56-666 (protein)
chain 1: QVQLVQSGAEVKKPGASVKISCKASGYTFSTYYMHWVRQAPGQGLEWMGIIYPSGGNTRYAQKFQGRVTMTRDTSTSTVYMELRNLRSEDTAVYYCAREVPPPLGNTWFDPWGQGTLVTVSS
chain 2: SYVLTQPSSVSVAPGKTARITCGGNDIGSKSVHWYQQKPGQAPVLVVYDDTDRPSGIPERFSGSNSGNTATLTISRVEAGDEADYYCQVWDGSGEPVVFGGGTKLSVL
B7: BD56-668 (protein)
chain 1: EVQLVESGGGLVQPGGSLRLSCAASGFTFSSYDMHWVRQATGQGLEWVSTIGTDGDTYYADSVKGRFTISRENAKNSLFLQMNSLRAGDTAVYYCARVNYDSSGYYWYFDLWGRGTLVTVSS
chain 2: DIQMTQSPSSLSASVGDSVTITCRASQSISRYLNWYQQRPGQAPKFLIYAASNLQSGVPSRFRGSGSGTDFTLTISSLQPEDFATYYCQQSYSAPPWTFGQGTKVAMK
B8: BD56-670 (protein)
chain 1: QVQLQESGPGLVKPSQTLSLTCTVSSGSISSGDVYWSWIRQHPGKGLEWIGYINYSGSTYYNPSLRSRVTISIDTSKSQFSLKLSSVTAADTAVYYCARDKAYTNYFDYWGQGALVTVSS
chain 2: SYVLTQPPSVSVAPGKTARISCGGDNIGSKNVHWYQQKPGQAPVLVVYDDSDRPSGIPERFSGSNSGNTATLTISRVEAGDEADYYCQVWDSNNDHSNWVFGGGTKLTVL
B9: BD56-677 (protein)
chain 1: EVQLLESGGGLVQPGGSLRLSCAASGFTFSSFVMTWVRQAPGKGLEWVSAISGSGSAPYYADSVKGRFTISRDNSKNTLYLQMNTLRAEDTAVYHCAKAIQDPADYFDYWGQGTLVTVSS
chain 2: SYVLTQPPSVSVAPGKTARITCGGNEIGSKSVHWYQQKPGQAPVVVIYYDSDRPSGIPERFSGSNSGNTATLTISRVEAGDEGDYYCQVWDSRWVFGGGTKLTVL
B10: BD56-678 (protein)
chain 1: QVQLVESGGGVVQPGTSLRLSCAASGFTFRYYGIHWVRQAPGKGLEWVAFIWYDGSNKYYADSVRGRFTISRDNSKNTLYLQMNSLRAEDTAFYYCAKGGDGSGEDDAFDIWGQGTMVTVSS
chain 2: QSVLTQPPSVSGAPGQRVTISCTGGSSNIGADYAVHWYQYLPGTAPKLLIYGNGERPSGVPDRFSGSKSGTSASLVITGLQAEDEADYYCQSYDGSLSGPWVFGGGTKLTVL
B11: TAU-1115 (protein)
chain 1: EVQLVESGGGLVQPGGSLRLSCAASGFTFSNYVMSWVRQAPGKGLEWVSGISGSGGSTYYADSMKGRFTISRDNSKNTLYLQMNSLRAEDTAVYYCAKDLTRDYYDSSGYQTGAFDIWGQGTMVTVSS
chain 2: SYELNQPPSVSVAPGQTARITCGGNNIGSKSVHWYQQKPGQAPVLVVYDDSDRPSGIPERFSGSNSGNTATLTISRVEAGDEADYYCQVWGGVFGGGTKLTVL
B12: BD56-679 (protein)
chain 1: QVQLVQSGAEVKKPGSSVKVSCKASGGTLTNYAINWVRQAPGQGLEWMGGIIPMYGSRNYAQRFQGRFTTTADESTSTAYMELRSLRSEDSAIYYCARVGYDVLTGYLDYWGQGTLVTVSS
chain 2: LTQPPSVSVAPGQTASITCGGNDIGSKNVHWYQQKPGQAPVLVVYDDSDRPSGIPGRFSGSNSGNTATLTISRVEAGDEADYYCQVWDSTSDLLYVFGTGTKVIVL
B13: BD56-684 (protein)
chain 1: HVQLQESGPGLMKPSETLSLTCTVSGGSISNYFWSWIRQPPGKGLEWIGYTDYRGSTNFNPSLKSRVTISVDTSKNQVSLKLRSVTAADTAVYYCARHFDWLLNDPDAFDVWGQGTLVTVSS
chain 2: EIVLTQSPGTLSLSPGERATLSCRASQSVSSSFLAWYQQKAGQAPRLIIYGAINRAAGIPDRFSGSGSGTDFTLTISRLEPEDFAVYYCQQYDKSPLTFGQGTKVEIK

How the values were obtained:
Experiment in all cases: pseudovirus neutralization IC50; higher = weaker neutralization
[1] = biological target: SARS-CoV-2 Omicron BA.1 spike pseudovirus
Experimental: (§1)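 Single-round VSV luciferase pseudovirus mixed with antibody dilutions for 1 h and put on Huh-7 cells for about a day; IC50 from the dose curve.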

[2] = biological target: SARS-CoV-2 Omicron BA.2 spike pseudovirus
Experimental: as §1

[3] = biological target: SARS-CoV-2 Omicron BA.2.75 spike pseudovirus
Experimental: as §1

[4] = biological target: SARS-CoV-2 Omicron BA.5 spike pseudovirus
Experimental: as §1

[5] = biological target: SARS-CoV-2 Omicron BQ.1.1 spike pseudovirus
Experimental: as §1

[6] = biological target: SARS-CoV-2 Omicron XBB spike pseudovirus
Experimental: as §1

[7] = biological target: SARS-CoV-2 early D614G spike pseudovirus
Experimental: as §1

Binder	pseudovirus neutralization IC50 [1] [µg/mL]	pseudovirus neutralization IC50 [2] [µg/mL]	pseudovirus neutralization IC50 [3] [µg/mL]	pseudovirus neutralization IC50 [4] [µg/mL]	pseudovirus neutralization IC50 [5] [µg/mL]	pseudovirus neutralization IC50 [6] [µg/mL]	pseudovirus neutralization IC50 [7] [µg/mL]
B1	> 10	> 10	> 10	> 10	> 10	> 10	> 10
B2	1.87	3.82	5.08	3.19	> 10	9.45	7.07
B3	0.001	0.000994	0.000479	0.000922	> 10	> 10	0.369
B4	> 10	> 10	> 10	> 10	> 10	> 10	> 10
B5	8.01	6.53	4.53	6.99	> 10	> 10	> 10
B6	4.63	7.56	3.78	4.3	7.05	6.62	8.42
B7	> 10	> 10	> 10	> 10	> 10	> 10	3.33
B8	> 10	> 10	> 10	> 10	> 10	> 10	> 10
B9	3.95	6.57	6.54	4.72	> 10	> 10	> 10
B10	3.35	2.79	1.46	2.31	> 10	> 10	0.485
B11	> 10	> 10	> 10	> 10	> 10	> 10	> 10
B12	2.5	6.17	2.62	3	6.56	6.25	2.69
B13	2.41	5.36	4.96	5	> 10	> 10	5.68

Source: the supplement of paper PMC9931576
